{
  "sequences": {"note": "The chains behind the UniProt entries cited, without tags or fusion partners.", "UniProt Q8DP63, whole entry, looked up": "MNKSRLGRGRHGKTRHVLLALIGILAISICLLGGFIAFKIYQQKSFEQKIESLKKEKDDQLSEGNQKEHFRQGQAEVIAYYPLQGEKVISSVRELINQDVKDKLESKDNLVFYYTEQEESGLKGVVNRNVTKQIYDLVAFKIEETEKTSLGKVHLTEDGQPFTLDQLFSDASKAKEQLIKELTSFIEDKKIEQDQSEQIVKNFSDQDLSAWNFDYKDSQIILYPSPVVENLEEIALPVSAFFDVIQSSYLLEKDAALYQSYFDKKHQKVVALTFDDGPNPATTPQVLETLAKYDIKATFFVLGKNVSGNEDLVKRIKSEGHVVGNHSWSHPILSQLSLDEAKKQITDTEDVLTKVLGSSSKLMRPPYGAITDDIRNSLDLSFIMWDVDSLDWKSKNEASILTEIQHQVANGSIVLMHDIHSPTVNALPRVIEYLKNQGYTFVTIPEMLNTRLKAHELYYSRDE"},
  "source": "BindingDB's records for 25864869",
  "data": [
    {"target": "Peptidoglycan-N-acetylglucosamine deacetylase (Streptococcus pneumoniae (strain ATCC BAA-255 / R6), UniProt Q8DP63)", "conditions": "pH 7", "units": {"Ki": "µM"}, "values": [
      {"compound": "CP(=O)(O)N[C@H]1C(O)[C@H](OCc2ccccc2)C(CO)O[C@H]1OCc1ccccc1", "note": "(stereo not given in full)", "Ki": 80},
      {"compound": "CO[C@@H]1OC(CO)[C@@H](OCc2ccccc2)C(O)[C@@H]1NP(C)(=O)O", "note": "(stereo not given in full)", "Ki": 170},
      {"compound": "CP(=O)(O)N[C@H]1C(O)[C@H](O)C(COCc2ccccc2)O[C@H]1OCc1ccccc1", "note": "(stereo not given in full)", "Ki": 220},
      {"compound": "CO[C@@H]1OC(COCc2ccccc2)[C@@H](O)C(O)[C@@H]1NP(C)(=O)O", "note": "(stereo not given in full)", "Ki": 580},
      {"compound": "COC1[C@H](OCc2ccccc2)C(CO)O[C@@H](OC)[C@H]1NP(C)(=O)O", "note": "(stereo not given in full)", "Ki": 720}
    ]}
  ]
}
